Anti-infective test results gathered from many reports (values: NIAID ChemDB through PubChem).

All rows: host cell toxicity; cell line: CEM; endpoint: CC50

Blank or dashed fields: not listed here. CCn is the concentration with n% toxicity to the cells. Neighbouring rows are from separate reports.

CCCCCCCNC(=O)CCCCC(=O)O ; value: >100 µg/mL
Nc1nc(=O)n([C@@H]2CC[C@H](CO)O2)cc1F ; value: 67 µM
CCc1c(Sc2cc(C)cc(C)c2)n(COCc2ccccc2)c(=O)[nH]c1=O ; value: >100 µM
Nc1nccc2c1ncn2[C@@H]1C[C@H](O)[C@@H](O)[C@H]1O ; value: 27 µg/mL
CCc1c(Sc2ccccc2)n(COCc2ccccc2)c(=O)[nH]c1=O ; value: 19.9 µM
CC(=O)OCC1OC(SC2C(OC(C)=O)OC(COC(C)=O)C(OC(C)=O)C2OC(C)=O)C(OC(C)=O)C(OC(C)=O)C1OC(C)=O ; value: >100 µg/mL
CCO[C@]12CS(=O)(=O)O[C@@]13C(CN2)O[C@@H](n1cc(C)c(=O)n(C)c1=O)[C@@H]3O[Si](C)(C)C(C)(C)C ; value: 32 µM
O=C(NCc1ccc(O)c(O)c1)c1ccc2ccc(C(=O)O)c(O)c2n1 ; read by: MTT ; value: >500 µM
Cc1cc(C)cc(Sc2c(C(C)C)c(=O)[nH]c(=O)n2COCCO)c1 ; value: 79.4 µM
CCCCCCCCCCNC(=O)CC(=O)O ; value: 12 µg/mL
CCOCn1c(Cc2ccccc2)c(CC)c(=O)[nH]c1=O ; value: ≥100 µM
CCCCNC(=O)CCCCCCCC(=O)O ; value: >100 µg/mL
COc1c(N2CCN(CN3C(=O)C(=Nc4ccc(S(=O)(=O)Nc5nc(C)cc(C)n5)cc4)c4ccccc43)C(C)C2)c(F)cc2c(=O)c(C(=O)O)cn(C3CC3)c12 ; read by: XTT ; value: 133 µM
CCCCCCCCCC(=O)NCCC(=O)O ; value: 66 µg/mL
CCOCn1c(Cc2ccccc2)c(C(C)C)c(=O)[nH]c1=O ; value: >100 µM
CCCCOC(=O)CCCCCCCC(=O)O ; value: >100 µg/mL
Cc1cn([C@@H]2O[C@@H]3CN[C@@]4(OCCO)CS(=O)(=O)O[C@@]34[C@H]2O[Si](C)(C)C(C)(C)C)c(=O)[nH]c1=O ; value: 73 µM
C=C(C)[C@@H]1CC[C@]2(C(=O)NCCCCC(=O)O)CC[C@]3(C)[C@H](CC[C@@H]4[C@@]5(C)CC[C@H](O)C(C)(C)[C@@H]5CC[C@]43C)[C@@H]12 ; value: >3 µM
CC(C)CCC[C@@H](C)[C@H]1CC[C@H]2[C@@H]3CC[C@H]4C[C@@H](CCC=C(c5cc(Cl)c(O)c(C(=O)O)c5)c5cc(Cl)c(O)c(C(=O)O)c5)CC[C@]4(C)[C@H]3CC[C@]12C ; value: >300 µg/mL
Cn1cccc1CN1C(=O)CSC1c1c(F)cccc1F ; value: 161 µM
C=C(C)[C@@H]1CC[C@]2(C(=O)NCCCCCCCNC(=O)CCC(=O)O)CC[C@]3(C)[C@H](CC[C@@H]4[C@@]5(C)CC[C@H](O)C(C)(C)[C@@H]5CC[C@]43C)[C@@H]12 ; value: >3 µM
Cc1cn([C@H]2CC[C@@H](CO)S2)c(=O)[nH]c1=O ; value: >150 µg/mL
CCO[C@]12CS(=O)(=O)O[C@@]13[C@@H](CN2)O[C@@H](n1ccc(=O)[nH]c1=O)[C@@H]3O[Si](C)(C)C(C)(C)C ; value: 111 µM
C=C(C)[C@@H]1CC[C@]2(C(=O)NCCCCCCCNC(=O)c3cccc(C(=O)O)c3)CC[C@]3(C)[C@H](CC[C@@H]4[C@@]5(C)CC[C@H](O)C(C)(C)[C@@H]5CC[C@]43C)[C@@H]12 ; value: 0.525 µM
COc1ccc(N2CCN(CN3C(=O)C(=Nc4ccc(S(=O)(=O)Nc5nc(C)cc(C)n5)cc4)c4cc(F)ccc43)CC2)cc1 ; read by: XTT ; value: 35.2 µM
CCCCC(=O)NCCCCCCCC(=O)O ; value: >100 µg/mL
O=C1CSC(c2c(F)cccc2Cl)N1Cc1cccs1 ; value: 42.09 µM
Cc1cn([C@H]2C[C@H](N=[N+]=[N-])[C@@H](CO)S2)c(=O)[nH]c1=O ; value: >100 µg/mL
Cc1cc(C)nc(NS(=O)(=O)c2ccc(N=C3C(=O)N(CN4CCN(c5cc6c(cc5F)c(=O)c(C(=O)O)cn6C)CC4C)c4ccccc43)cc2)n1 ; read by: XTT ; value: 116 µM
Nc1nc(=O)n([C@H]2CC[C@@H](CO)O2)cc1F ; value: 2 µM
CCCOC12CS(=O)(=O)OC13[C@@H](CN2)O[C@@H](n1cc(C)c(=O)[nH]c1=O)[C@@H]3O[Si](C)(C)C(C)(C)C ; value: 28.5 µM
Nc1ccc([C@H]2C[C@H](O)[C@@H](CO)O2)c(F)c1 ; value: >500 µM
CCOCn1c(Sc2ccccc2)c(C(C)C)c(=O)[nH]c1=S ; value: >100 µM
CCCCCCCCNC(=O)CCCC(=O)O ; value: 26 µg/mL
C=C(C)[C@@H]1CC[C@]2(C(=O)NCCCCCCCC(=O)Nc3ccccc3C(=O)O)CC[C@]3(C)[C@H](CC[C@@H]4[C@@]5(C)CC[C@H](O)C(C)(C)[C@@H]5CC[C@]43C)[C@@H]12 ; value: >3 µM
CC(C)c1c(Sc2ccccc2)n(COCCO)c(=O)[nH]c1=O ; value: >100 µM
CC(=O)c1ccc(C)cc1NC(C(N)=O)c1c(Cl)cccc1Cl ; value: >500 µM
Nc1nc(Cl)nc2c1ncn2[C@H]1CC[C@@H](CO)S1 ; value: >100 µg/mL
CCO[C@]12CS(=O)(=O)O[C@@]13[C@@H](CN2)O[C@@H](n1cc(C)c(=O)[nH]c1=O)[C@@H]3O ; value: >250 µM
O=C(O)CCCCCCCCCCCn1ccnn1 ; value: 10 µg/mL
CCn1cc(C(=O)O)c(=O)c2cc(F)c(N3CCN(CN4C(=O)C(=Nc5ccc(S(=O)(=O)Nc6nc(C)cc(C)n6)cc5)c5ccccc54)C(C)C3)c(F)c21 ; read by: XTT ; value: 117 µM

Again, the opening 2 rows:

| SMILES | read by | value |
|---|---|---|
| CCCCCCCNC(=O)CCCCC(=O)O | - | >100 µg/mL |
| Nc1nc(=O)n([C@@H]2CC[C@H](CO)O2)cc1F | - | 67 µM |